Compound potency records, mixed from different reports. Data source: NIAID ChemDB in PubChem.

All rows: tests in culture; organism: HIV-1

An empty or dashed field is not shown. ECn is the concentration giving n% inhibition of infection, replication or growth. Lines come from different laboratories, so protocols vary.

smiles	endpoint	cell line	strain or isolate	read by	mutations	result
O=S(=O)(Oc1ccc(N=Nc2ccc(N=Nc3ccc(OS(=O)(=O)c4ccc(Br)cc4)c4ncccc34)cc2)c2cccnc12)c1ccc(Br)cc1	EC50	C8166	IIIB	syncytia		17.11 µg/mL
CC(C)C1=C2[C@H]3CC[C@@H]4[C@@]5(C)CC[C@H](OC(=O)[C@H]6C[C@@H](C(=O)O)C6(C)C)C(C)(C)[C@@H]5CC[C@@]4(C)[C@]3(C)CC[C@@]2(CC(=O)NCC(C)(C)NC(=O)c2ccccc2Cl)CC1=O	EC50	MT-2	92HT599	p24 / ELISA		<1 µM
N#Cc1cc(Cl)cc(Oc2cc(Cl)cc(OCc3nc4ccccc4s3)c2)c1	EC95	MT-4		p24		<20 µM
O=c1[nH]cnc2c1ncn2[C@H]1CO[C@@H](CO)C1	EC50	PBMC	IIIB	p24	AZT-resistant	1.28 µM
COc1cc(C[C@@H](C)[C@@H](C)Cc2cc(O)c(OC)c(OC)c2)cc(O)c1OC	EC50	C8166	IIIB	syncytia		2.26 µg/mL
Nc1nc2c(ncn2CCC(CO)CO)c(=O)[nH]1	EC50	MT-4	IIIB	cytopathic effect / MTT		>493 µM
CN1N=C(N)c2cn([C@@H]3O[C@H](COP(=O)(O)O)[C@@H](O)[C@H]3O)c3ncnc1c23	EC50	CEM + CEM-SS	KELL	cytopathic effect / XTT		>2.8 µM
Cc1c(O)c(=O)ccn1C	EC50	H9		p24		~135 µM
O=c1c2ccccc2sn1/N=C/c1ccc(F)cc1	EC50	MT-4		MTT		4.4 µM
CC(C)[C@H](C)CC[C@](C)(O)[C@H]1C(=O)C[C@H]2[C@@H]3C(=O)C=C4C[C@@H](O)CC[C@]4(C)[C@H]3CC[C@@]21C	EC50	MT-4	NL4-3	MTT		0.09 µM
N#Cc1cc(Cl)cc(Oc2cc(OCc3nc4ccccc4s3)ccc2Cl)c1	EC50	MT-4		p24		<20 µM
Cc1ccc2sn(/N=C/c3cccc(O)c3)c(=O)c2c1	EC50	MT-4		MTT		>16 µM
O=C(N/C(C(=O)N1CCCCC1)=C(/Cl)c1ccccc1)c1ccccc1	EC50	MT-2	RF	plaque count / virus yield		>81 µM
Cc1ccc2sn(/N=C/c3ccccc3)c(=O)c2c1	EC50	MT-4		MTT	Y181C	>33 µM
Nc1nc2c(ncn2CCCC(O)CF)c(=O)[nH]1	EC50	CEM	IIIB	cytopathic effect		>100 µg/mL
OC[C@H]1C[C@@H](n2cnc3c(Cl)ncnc32)CO1	EC50	ATH8	IIIB	cytopathic effect		>100 µM
Cc1cc(/C=C/C#N)cc(C)c1Oc1nc(NC2CCN(Cc3ccc(C#N)cc3)CC2)nc2ccsc12	EC50	MT-4	IIIB	MTT	NNRTI-resistant (RT Y188L)	0.0332 µM
O=c1[nH]c(=O)n([C@H]2C[C@H](F)[C@@H](CO)O2)cc1/C=C/Br	EC50	MT-4	IIIB	cytopathic effect		30 µM
Cc1cn([C@@H]2O[C@H](CO)C[C@@H]2F)c(=O)nc1N	EC50	MT-4	IIIB			>500 µM
OC[C@H]1C[C@@H](n2cnc3c(=S)nc[nH]c32)CO1	EC50	ATH8	IIIB	cytopathic effect		>100 µM
CCC(C)Sc1nc(Cc2ccc(OC)cc2)cc(=O)[nH]1	EC50	MT-4	IIIB	cytopathic effect / MTT		14.7 µM
CC(=O)COc1cc2c(c(O)c1Br)C(=O)C1C(O)=CC(C)=CC1C2=O	EC50	MT-2	IIIB	MTT		>30 µM
COC(=O)c1ccc(CN2CCC(Nc3nc(Oc4c(C)cc(C#N)cc4C)c4ccsc4n3)CC2)cc1	EC50	MT-4	IIIB	MTT	NNRTI-resistant (RT L100I)	0.134 µM
CC(C)C1=C2[C@H]3CC[C@@H]4[C@@]5(C)CC[C@H](OC(=O)[C@H]6C[C@@H](C(=O)O)C6(C)C)C(C)(C)[C@@H]5CC[C@@]4(C)[C@]3(C)CC[C@@]2(CCNCc2ccc3nc[nH]c3c2)CC1=O	EC50	MT-2	92HT599	p24 / ELISA		<1 µM
COc1ccc(/C=N/n2sc3ccccc3c2=O)cc1	EC50	MT-4		MTT	EFV-resistant (K103 V179D P225H)	>19 µM
CCc1ccc(S(=O)(=O)Oc2ccc(N=Nc3ccc(N=Nc4ccc(OS(=O)(=O)c5ccc(CC)cc5)c5ncccc45)cc3)c3cccnc23)cc1	EC50	C8166	IIIB	syncytia		2.59 µg/mL
COc1ccccc1NC(=O)c1ccccc1C(O)c1ccc([N+](=O)[O-])cc1	EC50	H9	LAI			2.8 µM
N#Cc1cc(Cl)cc(Oc2cc(CCc3[nH]nc4ncccc34)ccc2Cl)c1	EC95	MT-4		p24		<20 µM
Cc1cn(C2OC(CO[Si](C)(C)C(C)(C)C)C3(OS(=O)(=O)C=C3N)C2O[Si](C)(C)C(C)(C)C)c(=O)n(/C=C/CO)c1=O	EC50	CEM	IIIB	syncytia		0.05 µM
O=c1ccn([C@H]2C[C@H](F)[C@@H](CO)O2)c(=O)[nH]1	EC50	MT-4	IIIB	cytopathic effect		0.275 µM
CCc1c(Cc2c(F)cccc2F)nc(SC(C)C)[nH]c1=O	EC50	MT-4	IIIB	cytopathic effect / MTT		0.1 µM
N#Cc1cc(Cl)cc(Oc2cc(Cl)cc(OCC(=O)Nc3ccc(C(N)=O)cc3Cl)c2)c1	EC95	MT-4		p24		<20 µM
Cc1cc(/C=C/C#N)cc(C)c1Oc1nc(NC2CCN(Cc3ccccc3Cl)CC2)nc2ccsc12	EC50	MT-4	IIIB	MTT	NNRTI-resistant (RT E138K)	0.158 µM
CC(C)CN(C[C@@H](O)[C@H](Cc1cc(F)cc(F)c1)NC(=O)O[C@H]1CO[C@H]2OC[C@H](NC(C)C)[C@H]21)S(=O)(=O)c1ccc2nc(NC3CC3)sc2c1	EC50	MT-4	NL4-3	MTT / p24		0.00034 µM
Nc1nc(N)c2ncn([C@@H]3O[C@H](CO)C[C@@H]3F)c2n1	EC50	MT-4	IIIB			>100 µM
N#Cc1cc(Cl)cc(Oc2cc(OCc3[nH]nc4ncccc34)ccc2Cl)c1	EC50	MT-4		p24		<20 µM
Cc1cn([C@H]2C[C@H](F)[C@@H](CO)O2)c(=O)[nH]c1=O	EC50	MT-4	IIIB	cytopathic effect		0.03 µM
COc1ccccc1NC(=O)c1ccccc1C(O)c1ccc(C#N)cc1	EC50	H9	LAI			3.1 µM
O=c1c2ccccc2sn1/N=C/c1cccc(F)c1	EC50	MT-4		MTT	Y181C	>15 µM
Nc1ccn([C@H]2C=C(F)[C@@H](CO)O2)c(=O)n1	EC50	PBMC				0.94 µM
Cc1ccc2sn(/N=C/c3ccc(F)cc3)c(=O)c2c1	EC50	MT-4		MTT	Y181C	>15 µM
O=S(=O)(O)c1cc(Cl)cc(Cc2cc(Cl)cc(S(=O)(=O)O)c2O)c1O	EC50	CEM	IIIB	syncytia		122.7 µg/mL
Cc1cn(C2OC(CO[Si](C)(C)C(C)(C)C)C3(OS(=O)(=O)C=C3N)C2O[Si](C)(C)C(C)(C)C)c(=O)n(/C=C\CO)c1=O	EC50	CEM	IIIB	syncytia		0.12 µM
CC(=O)OC[C@]12[C@H](OC(C)=O)[C@H](OC(C)=O)[C@@H]3[C@@H](OC(C)=O)[C@@]14O[C@@]3(C)COC(=O)c1cnccc1[C@@H](C)[C@@](C)(O)C(=O)O[C@@H]([C@H](OC(=O)c1ccoc1)[C@@H]2OC(C)=O)C4(C)O	EC50	H9		p24		0.1 µg/mL
CC(C)[C@@H]1CC[C@]2(C(=O)O)CC[C@]3(C)[C@H](CC[C@@H]4[C@@]5(C)CC[C@H](OC(=O)CCCC(=O)O)C(C)(C)[C@@H]5CC[C@]43C)[C@@H]12	EC50	H9	IIIB	p24 / ELISA		0.9 µM
CCC(C)Sc1nc(Cc2cccc3ccccc23)cc(=O)[nH]1	EC50	MT-4	IIIB	cytopathic effect / MTT		0.33 µM
COc1ccccc1NC(=O)c1ccccc1Oc1ccc(OCO)c(OCO)c1	EC50	MT-4	LAI			102.5 µM
CC(C)C1=C2[C@H]3CC[C@@H]4[C@@]5(C)CC[C@H](OC(=O)[C@H]6C[C@@H](C(=O)O)C6(C)C)C(C)(C)[C@@H]5CC[C@@]4(C)[C@]3(C)CC[C@@]2([C@@H](O)CNCC(CCCCN)NC(=O)c2ccc(Cl)cc2)CC1=O	EC50	MT-2	92HT599	p24 / ELISA		<1 µM
N#Cc1cc(Cl)cc(Oc2cc(F)cc(OCc3[nH]nc4nc(N)ccc34)c2)c1	EC95	MT-4		p24		<20 µM
Cc1cnc(=O)n([C@H]2C[C@H](F)[C@@H](CO)O2)c1	EC50	MT-4	IIIB	cytopathic effect		7 µM
Nc1ccn([C@H]2C=C[C@@H](CO)O2)c(=O)n1	EC50	PBMC				0.005 µM
CS(=O)(=O)c1ccc2c(c1)CCN2C(=O)COc1ccc(Cl)c(Oc2cc(Cl)cc(C#N)c2)c1	EC95	MT-4		p24		<20 µM
O=c1ccn([C@@H]2O[C@H](CO)[C@@H](F)[C@H]2F)c(=O)[nH]1	EC50	MT-4	IIIB			>500 µM
CC(C)C1=C2[C@H]3CC[C@@H]4[C@@]5(C)CC[C@H](OC(=O)[C@H]6C[C@@H](C(=O)O)C6(C)C)C(C)(C)[C@@H]5CC[C@@]4(C)[C@]3(C)CC[C@@]2([C@@H](O)CNCC(CCCN)NC(=O)c2ccc(Cl)cc2)CC1=O	EC50	MT-2	92HT599	p24 / ELISA		<1 µM
N#Cc1cc(Cl)cc(Oc2cc(OCc3[nH]nc4nc(N5CC(CN)C5)ccc34)ccc2Cl)c1	EC50	MT-4		p24		<20 µM
CC(C)(C)[Si](C)(C)OC[C@H]1O[C@@H](n2ccc(=O)[nH]c2=O)[C@H](O[Si](C)(C)C(C)(C)C)[C@H]1C#N	EC50	MT-4	IIIB	cytopathic effect		>0.64 µM
Nc1ccn(C(CF)CCCO)c(=O)n1	EC50	CEM	IIIB	cytopathic effect		>100 µg/mL
Nc1nc(F)c2ncn([C@H]3CO[C@@H](CO)C3)c2n1	EC50	ATH8	IIIB	cytopathic effect		>100 µM
Cc1cn([C@@H]2OCC(CO)=C2F)c(=O)[nH]c1=O	EC50					>100 µg/mL
CCOC(=O)c1c(C(C)C)c(C#N)c(=N)n2ccccc12	EC50	MOLT-4/HIV-1(IIIB) + MOLT-4	IIIB	trypan blue		>70.7 µM
CC(=O)OC[C@]12[C@H](OC(C)=O)[C@H](OC(C)=O)[C@@H]3[C@@H](OC(=O)c4ccccc4)[C@@]14O[C@@]3(C)COC(=O)c1cccnc1[C@@H](C)[C@H](C)C(=O)O[C@@H]([C@H](OC(C)=O)[C@@H]2OC(C)=O)C4(C)O	EC50	H9		p24		0.9 µg/mL
O=c1c2ccccc2sn1/N=C/c1ccc(O)c(O)c1	EC50	MT-4		MTT	K103N + Y181C	>44 µM
CC(C)C1=C2[C@H]3CC[C@@H]4[C@@]5(C)CC[C@H](OC(=O)[C@H]6C[C@@H](C(=O)O)C6(C)C)C(C)(C)[C@@H]5CC[C@@]4(C)[C@]3(C)CC[C@@]2([C@@H](O)CNCc2ccc(N3CCS(=O)(=O)CC3)cc2)CC1=O	EC50	MT-2	92HT599	p24 / ELISA		<1 µM
COC(=O)c1ccc(C(O)c2ccccc2NC(=O)c2ccccc2OC)cc1	EC50	H9	LAI			>100 µM
Nc1nc(=O)n([C@@H]2CC[C@H](CO)O2)cc1F	EC50	MT-2	IIIB	cytopathic effect / MTT		<1.2 µM
O=S(=O)(Oc1ccc(N=Nc2ccc(N=Nc3ccc(OS(=O)(=O)c4ccccc4)c4ncccc34)cc2)c2cccnc12)c1ccccc1	EC50	C8166	IIIB	syncytia		14.63 µg/mL
CCC(C)Sc1nc(Cc2ccccc2)cc(=O)[nH]1	EC50	MT-4	IIIB	cytopathic effect / MTT		1.2 µM
Nc1ncnc2c1ncn2[C@@H]1O[C@H](CO)[C@](O)(C(F)(F)F)[C@H]1O	EC50	MT-4				>100 µM
CC(=O)COc1c(Br)c(O)c2c(c1Br)C(=O)C1C=C(C)C=C(O)C1C2=O	EC50	MT-2	IIIB	MTT		>18 µM
COc1ccc(/C=N/n2sc3ccc(C)cc3c2=O)cc1	EC50	MT-4		MTT		>55 µM
Cc1cc(C#N)cc(C)c1Oc1nc(NC2CCN(Cc3ccc(S(C)(=O)=O)cc3)CC2)nc2sccc12	EC50	MT-4	RES056	MTT		0.0423 µM
Nc1nc2c(ncn2C[C@@H](CO)OCP(=O)(O)O)c(=O)[nH]1	EC50	CEM + CEM-SS	LAV-Bru	cytopathic effect / XTT		>500 µM
Cc1cc(C#N)cc(C)c1Oc1nc(NC2CCC(NCc3ccc(F)cc3)CC2)nc2ccsc12	EC50	MT-4	IIIB	MTT	NNRTI-resistant (RT E138K)	≥1.31 µM
COc1cc([C@@H]2c3cc(O)c(OC)cc3C(=O)[C@@H](C)[C@H]2C)ccc1O	EC50	C8166	IIIB	syncytia		9.18 µg/mL
CC(C)C1=C2[C@H]3CC[C@@H]4[C@@]5(C)CC[C@H](OC(=O)[C@H]6C[C@@H](C(=O)O)C6(C)C)C(C)(C)[C@@H]5CC[C@@]4(C)[C@]3(C)CC[C@@]2([C@@H](O)CNCC(C)(C)NC(=O)c2nccn2C)CC1=O	EC50	MT-2	92HT599	p24 / ELISA		<1 µM
Cc1cc(C#N)cc(C)c1Oc1nc(NC2CCN(Cc3ccc(S(N)(=O)=O)cc3)CC2)nc2sccc12	EC50	MT-4	IIIB	MTT	NNRTI-resistant (RT F227L V106A)	0.00885 µM